The target in assay [1] is T1, peptide 83 (329-[…]-343) (JC virus (JCV)).
T1 construct: also called spot 83
Nature of the assay: pepscan, peptides on membrane.

By UniProt entry, the sequences of proteins in these tests, tags left out. Where a name states a change or a piece, a line headed by the entry shows the natural chain unless it says otherwise. Residues count along the entry.
UniProt P02769, 25-607 limits assumed: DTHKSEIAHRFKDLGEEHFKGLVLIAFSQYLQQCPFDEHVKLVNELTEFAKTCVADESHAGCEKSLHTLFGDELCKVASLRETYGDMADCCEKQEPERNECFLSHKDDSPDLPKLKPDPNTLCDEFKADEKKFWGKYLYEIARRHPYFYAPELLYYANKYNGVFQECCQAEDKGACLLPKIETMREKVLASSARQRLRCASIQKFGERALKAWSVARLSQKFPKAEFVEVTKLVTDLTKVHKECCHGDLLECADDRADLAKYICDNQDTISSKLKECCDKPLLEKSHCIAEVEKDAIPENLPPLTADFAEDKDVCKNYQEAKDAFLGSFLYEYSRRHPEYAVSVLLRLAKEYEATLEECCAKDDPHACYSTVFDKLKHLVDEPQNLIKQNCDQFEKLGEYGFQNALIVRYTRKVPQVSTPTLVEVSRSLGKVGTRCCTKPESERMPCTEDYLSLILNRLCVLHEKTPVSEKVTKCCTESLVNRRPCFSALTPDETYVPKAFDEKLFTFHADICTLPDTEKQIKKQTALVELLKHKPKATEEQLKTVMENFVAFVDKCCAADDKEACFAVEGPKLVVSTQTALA
UniProt P03089: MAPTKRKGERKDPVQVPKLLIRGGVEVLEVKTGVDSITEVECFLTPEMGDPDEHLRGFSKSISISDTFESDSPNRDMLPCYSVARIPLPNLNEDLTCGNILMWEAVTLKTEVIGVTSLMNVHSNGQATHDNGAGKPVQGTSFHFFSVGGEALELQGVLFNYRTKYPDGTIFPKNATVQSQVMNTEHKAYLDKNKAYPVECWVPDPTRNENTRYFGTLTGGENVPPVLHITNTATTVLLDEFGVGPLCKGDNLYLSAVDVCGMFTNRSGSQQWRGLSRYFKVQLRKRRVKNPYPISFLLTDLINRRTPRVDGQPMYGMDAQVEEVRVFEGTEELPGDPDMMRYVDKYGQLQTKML

Assay [2] addresses T2, peptide 82 (325-[…]-339) (JC virus (JCV)).
T2 construct: also called spot 82
Nature of the assay: pepscan, peptides on membrane.

In assay [3] the target is T3, BSA (Sigma-Aldrich) (bovine, UniProt P02769 25-607).
T3 construct: also called bovine serum albumin
Nature of the assay: direct ELISA. On the technique in general: An ELISA detects its analyte on a solid surface through an enzyme-linked reagent.

Assay [4] concerns the target T4, JCV VP1 VLP (JC virus (JCV), Mad-1 strain, UniProt P03089 1-354).
T4 construct: also called JCV VP1 VLPs; JCV VP1 (coating with reassociation buffer)
Nature of the assay: direct ELISA.

For orientation: EC50 means the concentration that produces a half-maximal response.

B1: NI-307.11G6 (antibody, V domains shown)
VH: QVQLVESGGDLVKPGGSLRLSCAASGFTFSDHYMSWIRQAPGKGLEWVSYISTRSTYTNYADSVKGRFTISRDNAKNSLYLHMNSLRTEDTAVYYCARDYSDTSGPPDYWGQGTLVTVSS
VL: QSVLTQPPSASGTPGQRVTISCSGSNSNIGSNYVYWYQQLPGTAPKLVIYRNTQRPSGVPDRFSGSKSGTSASLAISGLRSEDEADYYCAAWDDSLSGLVFGGGTKLTVL
Take B1: the binding result in assay [1] is listed as “binds”; in assay [2] it was “binds”; in assay [3], “no binding”. In addition, in assay [4], the 50% effective concentration (EC50) is 0.0118 nM.

For the origin of these results see US20160052996A1 (NEURIMMUNE, published 2016).
